Results reported in publication PMC12839305 (Biomolecules, 2025).

Biological target: RVFV glycoprotein Gn head domain (154–469 aa) (Rift Valley fever virus, UniProt P21401 154-469, biotin (biotinylation kit; for the BLI only))
Experiment: BLI

B1: LRP1 CL IV-B Mutation B1 (Glu3517Ala/Asp3518Ala/Asp3519Ala) (domain or fragment)
chain: MTCGVDEFRCKDSGRCIPARWKCDGAAACGDGSDEPKEECDERTCEPYQFRCKNNRCVPGRWQCDYDNDCGDNSDEESCTPRPCSESEFSCANGRCIAGRWKCDGDHDCADGSDEKDCTPRCDMDQFQCKSGHCIPLRWRCDADADCMDGSDEEACGT
- Kd: 76 nM

B2: LRP1 CL IV-B Mutation B4 (Asp3633Ala/Asp3635Ala/Asp3637Ala) (domain or fragment)
chain: MTCGVDEFRCKDSGRCIPARWKCDGEDDCGDGSDEPKEECDERTCEPYQFRCKNNRCVPGRWQCDYDNDCGDNSDEESCTPRPCSESEFSCANGRCIAGRWKCDGDHDCADGSDEKDCTPRCDMDQFQCKSGHCIPLRWRCAAAAACMDGSDEEACGT
- Kd: 91 nM
